Assay results taken from patent publication US20160122395A1, “Immunogenic compositions and a process for producing same” (THE […] INSTITUTE FOR MEDICAL RESEARCH AND PUBLIC HEALTH LTD, priority 2013, published 2016).

Molecular target: HIV-1 AD8 envelope glycoprotein (Env), wild type (HIV-1 (AD8 strain))
Test: cell-based or functional assay

“soluble CD4 (from UniProt P01730 26-396) (receptor)” gave an IC50, inhibition of Env-mediated cell-cell fusion by sCD4 (luciferase) of 60 µg/mL.
